Measurements reported in PubChem BioAssay AID1224833 (University of Georgia, 2016).

Purpose: 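Host factors restraining rotavirus as candidate antiviral genes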 (primary screen)
Cells: monkey MA104 kidney cells
Reagent: siRNA pool against human genes, 50 nM
Duration: 48 h knock-down before infection; read 24 h after infection
Challenge: infection with rotavirus strain RV3 two days after transfection; infectious dose for this stage not given
Measurement: 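Rotavirus antigen per well by fluorescent immunoassay, normalised to non-targeting control wells on each plate and given as a standard z-score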
Direction: z-score vs non-targeting control: higher = more rotavirus replication than with non-targeting control
Active means: In these data the active calls have z-score vs non-targeting control at about -1 or lower, or at about 1 or higher
Calls: active = z-score beyond 1 either way; inactive = z-score within 1 of zero
The whole screen tested about 12,000 reagents; this is a part drawn at random. Over the whole deposit, about 5,600 (46%) got an active call. 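Active calls cover z-scores past 1 in both directions, so they include lowered as well as raised rotavirus replication.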 A number with no mark means an inactive call. Reagent sequences are not shown.

gene | z-score vs non-targeting control
SRGAP2 | 1.85 (active)
MCTS1 | -0.421
FURIN | 1.91 (active)
PSD | -0.59
CNN2 | -0.0263
WDR76 | 1.19 (active)
ATRN | -0.303
ZSCAN9 | -0.765
ARHGEF5 | -0.171
COL5A1 | 1.42 (active)
ZDHHC11 | -0.387
HSPA12A | 0.859
VDR | -2.92 (active)
POMGNT1 | -1.49 (active)
OR11G2 | -0.4
OR2L3 | -0.693
GSTM2 | -1.54 (active)
ZC3H12B | 1.27 (active)
ARF5 | -1.16 (active)
PTS | -2.01 (active)
DENND5A | 0.0244
SPANXN1 | -1.19 (active)
DCTN1 | 0.52
DUSP29 | -1.17 (active)
BCL11A | 0.682
MEP1A | 0.592
CARTPT | 1.93 (active)

Reformatted: 3 of the entries above
gene,z-score vs non-targeting control
DUSP29,-1.17 (active)
BCL11A,0.682
MEP1A,0.592

Continued:
gene | z-score vs non-targeting control
SLC39A10 | -0.921
GARRE1 | -0.382
PHYHD1 | -0.862
PDAP1 | 0.711
DNAJB1 | -0.45
C3orf52 | 2.63 (active)
OR6B2 | -2.41 (active)
REEP2 | -0.318
ZNF275 | -2.11 (active)
AFDN | 0.0064
MAPDA | 1.22 (active)
COX7B2 | -1.87 (active)
NPM1 | -1.08 (active)
FAM135A | 1.51 (active)
OR5M3 | -0.996
OR10H2 | -1.46 (active)
SKA1 | 0.445
POLR2I | -1.06 (active)
